Record: PubChem BioAssay AID504761 (Drosophila RNAi Screening Center, 2011)

- Screen: 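Genome-wide fly cell screen for genes dengue virus requires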 (primary screen)
- Cell system: D.Mel-2 cells from Drosophila
- Knock-down reagent: long dsRNA against Drosophila genes
- Treatment: infection with dengue virus type 2; dose and infection time not stated
- Measurement: 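Per well on two replicate plates, imaging gave the percent of cells positive for viral envelope protein, ranked by infection, and a nuclear count of cells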
- Scale: infection score: higher = more virus-infected cells; cell count: higher = more cells in the well
- Rule for the call: 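Very low infection ranking in both replicate wells (chance probability at most 0.065), then a retest showing infection dropped 1.5-fold or more at p below 0.05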
- Calls: active = confirmed: knock-down lowers infection; inactive = not picked or not confirmed
The deposit covers about 22,000 reagents; shown is an unselected part of those that have a named target and a result. Over the whole deposit, 116 (0.52%) are marked active. 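Calls depend on retest data that are not deposited; infection was ranked per plate without normalising between plates; the unit of the infection score is not given.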 The raw values are shown without normalisation. Unmarked entries are inactive. Reagents against one gene are numbered here. A plus sign joins genes that one reagent is predicted to hit. The record does not give: the amount of reagent, the time to read-out.

target,dsRNA no.,"infection score, replicate 1","infection score, replicate 2","cell count, replicate 1","cell count, replicate 2"
CG4709,1,11,15.1,6599,6162
CG4363,1,7.4,5.46,6680,6992
Rh4 + sina,1,15.4,15.4,5746,5281
CG11309,1,1.79,14.1,6416,6233
CG11309,2,21.4,24.9,5480,3072
CG15464 (retired record),1,2.39,6.06,6809,6982
CG15464 (retired record),2,3.52,7.8,6646,6182
CG32365,1,3.16,3.19,6497,6016
CG32813,1,1.19,5.4,6454,5551
CG32813,2,6.32,11.5,6776,5355
spd-2 (spindle defective 2),1,2.9,8.7,6893,6735
spd-2 (spindle defective 2),2,2.13,2.87,6278,6617
CG12768,1,3.05,1.35,6009,6968
CG12768,2,9.18,3.29,2505,2434
Tret1-2 (Trehalose transporter 1-2),1,7.21,10.7,6632,6146
Tret1-2 (Trehalose transporter 1-2),2,13.4,16.8,5538,3255
TotB (Turandot B),1,3.8,18.4,6895,5514
Faa (Fumarylacetoacetase),1,15.2,15.9,5249,5016
CG7166,1,15.1,19.5,6129,5294
CG14598,1,3.43,29.5,6971,5894
CG14598,2,7.44,9.49,5876,6099
DCP2 (Decapping protein 2),1,7.12,10.8,5691,4791
CG7227,1,4.72,4.16,6632,6448
ppk14 (pickpocket 14),1,2.92,1.63,6542,6120
bowl,1,2.18,3.73,6322,6548
bowl,2,3.15,3.81,1399,682
brk (brinker),1,1.54,7.04,5961,6339
brk (brinker),2,14.5,11.7,6539,5885
Sobp (Sine oculis-binding protein),1,10.4,8.89,1704,5828
Sobp (Sine oculis-binding protein),2,4.57,3.43,6435,6263
CG42784,1,21.9,22.7,5831,5691
CG42784,2,0.58,12.5,5886,6358
CG42784,3,1.18,6.25,5159,5823
CG42784,4,5.38,3.39,6099,6280
CG42784,5,13.3,5.18,6427,6371
CG5033,1,5.94,9.24,5879,5672
CG5033,2,10.9,12,5700,6733
CG8323,1,6.5,10.6,6909,6637
CG16721,1,3.18,2.84,6386,6866
chrb (charybde),1,20.9,21.1,5718,5580
chrb (charybde),2,6.15,4.29,5868,5897
CAH7 (Carbonic anhydrase 7),1,16.4,2.5,6122,6847
Tep4 (Thioester-containing protein 4),1,9.69,2.27,3324,6222
CG17032,1,1.09,1.98,6054,6458
CG32564,1,10.9,1.79,6188,6921
CG32564,2,3.59,6.13,7110,6412
CG18268 + CG3014,1,8.56,24.7,6188,4201
ninaG,1,4.21,9.37,6372,6979
CG30271,1,6.59,7.4,6696,6795
CG30271,2,14.1,7.36,4909,6481
Non3 (Novel nucleolar protein 3),1,6.14,28.5,6251,5203
lola (longitudinals lacking),1,2.41,5.6,5767,5088
lola (longitudinals lacking),2,2.86,7.21,5251,4784
lola (longitudinals lacking),3,0.08 (active),0.2,5954,6101
lola (longitudinals lacking),4,0.33,0.07,5704,5605
lola (longitudinals lacking),5,2.56,1.44,5733,5358
lola (longitudinals lacking),6,18.1,7.45,5915,5985
lola (longitudinals lacking),7,11.7,8.36,5962,6508
lola (longitudinals lacking),8,8,19.4,6762,6229
lola (longitudinals lacking),9,13.9,11.5,6344,6575
lola (longitudinals lacking),10,3.16,16.3,5447,5300
lola (longitudinals lacking),11,6.82,3.52,4517,4144
CG6550,1,2.61,3.55,6846,6846
CG15005,1,4.03,4.54,6283,5634
CG15005,2,10.8,7.96,5232,5751
Pif2 (PFTAIRE-interacting factor 2),1,6.43,7.21,6745,6806
Pif2 (PFTAIRE-interacting factor 2),2,4.56,,5879,
CG14931,1,5.65,7.5,6280,6255
insb (insensible),1,15.3,25.8,4152,5877
insb (insensible),2,5.69,16.5,6009,4304
RabX4,1,1.34,4.37,6560,6769
RabX4,2,5.83,8.74,5831,6445
Ptr (Patched-related),1,4.1,8.61,6444,6863
Ptr (Patched-related),2,2.81,5.18,5977,6522
